The structures appear in SMILES notation.

The subject of the assay is HIV-1 HXB2.

For `CC[C@H](C)[C@H](NC(C)=O)C(=O)N[C@@H](CCCCN)C(=O)N[C@@H](CCCCN)C(=O)N[C@@H](CCC(=O)O)C(=O)N[C@H](C(=O)N[C@@H](CCC(=O)O)C(=O)N[C@@H](C)C(=O)N[C@H](C(=O)N[C@@H](CCCCN)C(=O)N[C@@H](CCCCN)C(=O)N[C@@H](CCC(=O)O)C(=O)N[C@@H](CCC(N)=O)C(=O)N[C@@H](CCC(=O)O)C(=O)N[C@@H](C)C(=O)N[C@H](C(=O)N[C@@H](CCCCN)C(=O)N[C@@H](CCCCN)C(=O)N[C@@H](CCCCN)C(=O)N[C@H](C(=O)N[C@@H](CCC(=O)O)C(=O)N[C@@H](C)C(=O)N[C@H](C(=O)N[C@@H](CCC(=O)O)C(=O)N[C@@H](CCCCN)C(=O)N[C@@H](CC(C)C)C(=O)N[C@@H](CC(C)C)C(=O)N[C@@H](CCC(N)=O)C(=O)N[C@@H](CC(C)C)C(=O)N[C@H](C(=O)N[C@H](C(=O)N[C@@H](Cc1c[nH]c2ccccc12)C(=O)NCC(=O)N[C@H](C(=O)N[C@@H](CCCCN)C(=O)N[C@@H](C)C(=O)N[C@@H](CC(C)C)C(=O)N[C@@H](C)C(=O)N[C@@H](C)C(=O)N[C@@H](C)C(=O)N[C@H](C(=O)N[C@@H](C)C(N)=O)[C@@H](C)CC)[C@@H](C)CC)C(C)C)[C@@H](C)O)[C@@H](C)CC)[C@@H](C)CC)[C@@H](C)CC)[C@@H](C)CC)[C@@H](C)CC` [IZN17Ala4], the “anti-viral activity against HIV-1 HXB2, in words” value was “retain anti-viral activity”. In addition, the IC50 (read-out: IC50 against HIV-1 HXB2) was found to be 25 nM.

By IC50 is commonly meant the concentration that inhibits the measured activity by half.

Source of the values: patent publication US7811577B2 (priority 2004, dated 2010).
